Measured values from several laboratories, pooled; numbers as filed in NIAID ChemDB.

Shared fields: enzyme or target tests; species: HIV; protein: Reverse transcriptase

An empty or dashed field is not shown. Fold resistance: result on the changed form divided by that on wild type. Rows are shuffled and stem from different studies. Inhibition is in % at the dose shown (toxicity tests: loss of growth or viability). ICn is the concentration giving n% inhibition.

smiles | measure | tested at | mutations | read by | value
Cc1cn([C@H]2CC[C@@H](COP(=O)(O)OP(=O)(O)OP(=O)(O)OP(=O)(O)OC[C@@H]3CC[C@H](n4cc(C)c(=O)[nH]c4=O)O3)O2)c(=O)[nH]c1=O | IC50 | - | RT-D67N K70R T215Y K219Q | nucleotide incorporation / radiometric | 0.92 µM
Nc1ncnc2c1ncn2[C@H]1CC[C@@H](COP(=O)(O)OP(=O)(O)OP(=O)(O)O)O1 | fold resistance | - | RT-L74V | - | 4.5
CSc1ncc(C(N)=O)c(Nc2ccc3cn[nH]c3c2)n1 | inhibition | 1 µg/mL | - | ELISA | 62%
CC(C)=CCN1Cc2cccc3[nH]c(=S)n(c23)C[C@@H]1C | Ki | - | - | nucleotide incorporation | 0.92 µM
Nc1ncnc2c1ccn2[C@H]1C[C@H](F)[C@@H](COP(=O)(O)OP(=O)(O)OP(=O)(O)O)O1 | IC50 | - | RT-D67N K70R T215Y K219Q | nucleotide incorporation / radiometric | 0.16 µM
CC(C)=CCN1Cc2cccc3[nH]c(=S)n(c23)C[C@@H]1C | IC50 | - | RT-K263V | nucleotide incorporation | 0.5 µM
Nc1nc2c(ncn2[C@H]2CC[C@@H](COP(=O)(O)OP(=O)(O)OP(=O)(O)O)O2)c(=O)[nH]1 | fold resistance | - | RT-D67N K70R T215Y K219Q | nucleotide incorporation / radiometric | 0.66
Nc1nc2c(ncn2[C@H]2CC[C@@H](COP(=O)(O)OP(=O)(O)OP(=O)(O)O)O2)c(=O)[nH]1 | fold resistance | - | RT-T215Y | - | 1.43
Fc1cccc(F)c1CC(=S)NCc1ccccn1 | IC50 | - | L100I | radiometric | 70.1 µM
CCC(c1nc(N(C)C)[nH]c(=O)c1C)c1c(F)cccc1F | Ki | - | K103N | nucleotide incorporation | >20 µM
Nc1nc2c(ncn2[C@H]2CC[C@@H](COP(=O)(O)OP(=O)(O)OP(=O)(O)O)O2)c(=O)[nH]1 | Ki | - | RT-V75I F77L F116Y Q151M | nucleotide incorporation / radiometric | 0.045 µM
CN(C)CCCN=C(N)c1ccc(C(N)=NCCCN(C)C)cc1 | Ki | - | RT-Y188L | nucleotide incorporation / radiometric | 44 µM
S=C(Cc1ccccn1)NCCc1ccccc1 | IC50 | - | L100I | radiometric | >100 µM
Cc1cc(Cc2ccc(Cl)c(Oc3cc(C#N)cc(C#N)c3)c2F)n[nH]c1=O | IC50 | - | WT | - | 0.001 µM
CCOC(=O)c1c(C(C)C)c(C#N)c(=N)n2ccccc12 | inhibition | 80 µM | - | - | 15%
CNc1ccccc1C(=O)O[C@H]1[C@@H](O)[C@H](n2cnc3c(N)ncnc32)O[C@@H]1COP(=O)(O)OP(=O)(O)OP(=O)(O)OP(=O)(O)OC[C@@H]1CC[C@H](n2cnc3c(=O)[nH]c(N)nc32)O1 | fold resistance | - | RT-M41L T215Y | nucleotide incorporation / radiometric | 0.238
Fc1cccc(F)c1CC(=S)Nc1ccc(Cl)cn1 | IC50 | - | L100I | radiometric | >100 µM
Nc1nc2c(ncn2[C@H]2CO[C@@H](COP(=O)(O)OP(=O)(O)OP(=O)(O)O)O2)c(=O)[nH]1 | Ki | - | RT-K65R K103N | radiometric | 0.034 µM
Fc1cccc(F)c1CC(=S)NCCc1ccccn1 | IC50 | - | L100I | radiometric | >100 µM
Cc1cn([C@H]2CC[C@@H](COP(=O)(O)OP(=O)(O)OP(=O)(O)O)O2)c(=O)[nH]c1=O | Ki | - | RT-V75I F77L F116Y Q151M | nucleotide incorporation / radiometric | 0.49 µM
Nc1ccn([C@@H]2CC[C@H](COP(=O)(O)OP(=O)(O)OP(=O)(O)O)O2)c(=O)n1 | fold resistance | - | RT-Y188L | nucleotide incorporation / radiometric | 1.4